Pooled drug test results. Numbers come from NIAID ChemDB, via PubChem.

Common to all: whole-cell or culture tests; organism: Candida albicans; read-out: MFC

Blank or dashed fields: not listed here.

{"structure": "N=C(N)Sc1c2ccccc2nc2cccc([N+](=O)[O-])c12", "strain or isolate": "CNCM 1180-79", "value": ">500 µg/mL"}
{"structure": "Clc1ccc(COC(Cn2ccnc2)c2ccc(Cl)cc2Cl)c(Cl)c1", "strain or isolate": "ATCC 10231", "value": "20 µg/mL"}
{"structure": "Clc1ccc(C(c2ccccc2)N2CCN(CCn3cncn3)CC2)cc1", "read by": "broth dilution", "value": "32 µg/mL"}
{"structure": "C[C@H]1[C@H](O)[C@@H](C)/C=C/C=C/C=C/C=C/C=C/C=C/C=C/[C@H](O[C@@H]2O[C@H](C)[C@@H](O)[C@H](N)[C@@H]2O)C[C@@H]2O[C@](O)(C[C@@H](O)C[C@@H](O)CC[C@H](O)[C@@H](O)C[C@@H](O)CC(=O)O[C@H]1C)C[C@H](O)[C@H]2C(=O)O", "strain or isolate": "ATCC 10261", "read by": "broth dilution / turbidity", "value": "0.7 µg/mL"}
{"structure": "Clc1ccccc1CC(Cc1ccc(-c2ccccc2)cc1)n1ccnc1", "value": "19 µM"}
{"structure": "Clc1ccc(C(c2ccccc2)n2cnc3ccccc32)cc1", "read by": "broth dilution", "value": ">256 µg/mL"}
{"structure": "Clc1ccc(CO/N=C2\\c3ccccc3OCC2n2cncn2)cc1", "strain or isolate": "ATCC 10231", "value": ">64 µg/mL"}
{"structure": "O=C(c1ccccc1)C(c1ccccc1)n1cnc2ccccc21", "read by": "broth dilution", "value": ">256 µg/mL"}
{"structure": "Cc1ccccc1CN(Cc1ccc(-c2ccccc2)cc1)n1ccnc1", "value": "200 µM"}
{"structure": "C[C@@H]1O[C@@H](O[C@H]2[C@H](O[C@H]3CC[C@]4(C)[C@H]5CC=C6[C@@H]7CC(C)(C)CC[C@]7(C(=O)O)CC[C@@]6(C)[C@]5(C)CC[C@H]4C3(C)C)OC[C@H](O)[C@@H]2O)[C@H](O)[C@H](O)[C@H]1O", "strain or isolate": "Clinical isolates", "value": ">100 µg/mL"}
{"structure": "NC=Nc1ccc(SCc2ccc(Cl)cc2)cc1", "strain or isolate": "SC5314", "value": "50 µM"}
{"structure": "Brc1ccc(CO/N=C2\\c3ccccc3OCC2n2cncn2)cc1", "strain or isolate": "ATCC 10231", "value": "64 µg/mL"}
{"structure": "O=C(c1ccccc1)C(c1ccccc1)n1ccnc1", "read by": "broth dilution", "value": ">256 µg/mL"}
{"structure": "Clc1ccccc1CN(Cc1ccc(-c2ccccc2)cc1)n1ccnc1", "value": "33 µM"}
{"structure": "C[C@@H]1O[C@@H](O[C@H]2[C@H](O[C@H]3CC[C@@]4(C)[C@@H](CC[C@]5(C)[C@@H]4CC=C4[C@@H]6CC(C)(C)CC[C@]6(C(=O)O)CC[C@]45C)[C@]3(C)CO)OC[C@H](O)[C@@H]2O)[C@H](O)[C@H](O)[C@H]1O", "strain or isolate": "ATCC 90029", "value": "25 µg/mL"}
{"structure": "COc1ccccc1CN(Cc1ccc(-c2ccccc2)cc1)n1ccnc1", "value": "33 µM"}
{"structure": "C[C@H]1[C@H](O)[C@@H](C)/C=C/C=C/C=C/C=C/C=C/C=C/C=C/[C@H](O[C@@H]2O[C@H](C)[C@@H](O)[C@H](N)[C@@H]2O)C[C@@H]2O[C@](O)(C[C@@H](O)C[C@@H](O)CC[C@H](O)[C@@H](O)C[C@@H](O)CC(=O)O[C@H]1C)C[C@H](O)[C@H]2C(=O)O", "read by": "broth dilution", "value": ">50 µg/mL"}
{"structure": "CCC(C)CC(C)CCCCCCCCC(=O)NC1C[C@H](O)[C@@H](O)NC(=O)[C@@H]2[C@@H](O)[C@@H](C)CN2C(=O)[C@H]([C@H](O)CC(N)=O)NC(=O)[C@H](C(O)[C@H](O)c2ccc(O)cc2)NC(=O)[C@@H]2C[C@@H](O)CN2C(=O)[C@H]([C@@H](C)O)NC1=O", "strain or isolate": "MY1055", "value": "0.125 µg/mL"}
{"structure": "Cn1c2ccccc2c(=O)c2c([N+](=O)[O-])ccc(CCN)c21", "strain or isolate": "CNCM 1180-79", "value": "500 µg/mL"}
{"structure": "CCCCCSc1cc(C(N)=S)ccn1", "strain or isolate": "176", "value": "100 µg/mL"}
{"structure": "C[N+](C)(C)CCOP(=O)([O-])OCCCCCC1CCCCCCCCCCCCCC1", "strain or isolate": "ATCC 10231", "read by": "broth dilution", "value": "8 µg/mL"}
{"structure": "Clc1ccc(CO/N=C2/c3ccc(Cl)cc3OCC2n2cncn2)cc1", "strain or isolate": "ATCC 10231", "value": ">64 µg/mL"}
{"structure": "CCC(C)CC(C)CCCCCCCCC(=O)NC1C[C@H](O)[C@@H](O)NC(=O)[C@@H]2C[C@@H](O)CN2C(=O)[C@H]([C@H](O)CC(N)=O)NC(=O)[C@H](C(O)[C@H](O)c2ccc(O)cc2)NC(=O)[C@@H]2C[C@@H](O)CN2C(=O)[C@H]([C@@H](C)O)NC1=O", "strain or isolate": "MY1055", "value": "2 µg/mL"}
{"structure": "N#Cc1ccccc1/C=N/Nc1ccnc2cc(Cl)ccc12", "value": ">200 µg/mL"}
{"structure": "Clc1ccc(C(c2ccccc2)n2cncn2)cc1", "read by": "broth dilution", "value": "64 µg/mL"}
{"structure": "Fc1ccc(OC(CCn2ccnc2)c2ccccc2)c(F)c1", "strain or isolate": "20 strains", "value": "88 µg/mL"}
{"structure": "COc1ccc(CC(Cc2ccc(-c3ccccc3)cc2)n2ccnc2)cc1", "value": ">100 µM"}
{"structure": "CCOc1ccc2nc3cc(N=C4NC(=O)/C(=C\\C=C\\c5ccc([N+](=O)[O-])o5)S4)ccc3c(N)c2c1", "strain or isolate": "ATCC 60193", "read by": "broth dilution", "value": ">1000 µg/mL"}
{"structure": "Clc1ccc(CO/N=C2/c3ccccc3OCC2n2cncn2)cc1Cl", "strain or isolate": "ATCC 10231", "value": ">64 µg/mL"}
{"structure": "O=[N+]([O-])c1ccc(OC(CCn2ccnc2)c2ccccc2)cc1", "strain or isolate": "20 strains", "value": "67.2 µg/mL"}
{"structure": "c1ccc(CC(Cc2ccc(-c3ccccc3)cc2)n2ccnc2)cc1", "value": ">100 µM"}
{"structure": "CCSc1ccc([N+](=O)[O-])c2c(SCC)c3ccccc3nc12", "strain or isolate": "CNCM 1180-79", "value": ">500 µg/mL"}
{"structure": "Clc1ccc(CO/N=C2\\c3ccccc3OCC2n2cncn2)c(Cl)c1", "strain or isolate": "ATCC 10231", "value": ">64 µg/mL"}
{"structure": "Clc1ccc(C(c2ccccc2)N2CCN(CCn3ccnc3)CC2)cc1", "read by": "broth dilution", "value": ">256 µg/mL"}
{"structure": "CCC(C)CC(C)CCCCCCCCC(=O)NC1CCCNC(=O)[C@@H]2[C@@H](O)CCN2C(=O)[C@H]([C@H](O)CC(N)=O)NC(=O)[C@H](C(O)[C@H](O)c2ccc(O)cc2)NC(=O)[C@@H]2C[C@@H](O)CN2C(=O)[C@H]([C@@H](C)O)NC1=O", "strain or isolate": "MY1208", "value": "1 µg/mL"}
{"structure": "O=[N+]([O-])c1cccc(/C=N/Nc2ccnc3cc(Cl)ccc23)c1", "value": ">200 µg/mL"}
{"structure": "N=C(N)c1ccc2nc(-c3ccc(-c4nc5ccc(C(=N)N)cc5[nH]4)[nH]3)[nH]c2c1", "strain or isolate": "Isolate CA783", "value": "0.78 µg/mL"}
{"structure": "CC1(C)CC[C@]2(C(=O)O)CC[C@]3(C)C(=CC[C@@H]4[C@@]5(C)CC[C@H](OC6O[C@H](CO)[C@@H](O)[C@H](O)[C@H]6OC6O[C@H](CO)[C@@H](O)[C@H](O)[C@H]6O)C(C)(C)[C@@H]5CC[C@]43C)[C@@H]2C1", "strain or isolate": "Clinical isolates", "value": ">100 µg/mL"}
{"structure": "O=C(c1ccccc1)C(c1ccccc1)n1nnc2ccccc21", "read by": "broth dilution", "value": ">256 µg/mL"}
{"structure": "CSc1cc(C(N)=S)ccn1", "strain or isolate": "3a", "value": ">200 µg/mL"}
{"structure": "CCCCCCCCCCCCCCCCOP(=O)([O-])OCC[N+](C)(C)C", "strain or isolate": "Clinical isolate 44A", "read by": "broth dilution", "value": "4 µg/mL"}
{"structure": "CCCCCCSc1cc(C(N)=S)ccn1", "strain or isolate": "3a", "value": "50 µg/mL"}
{"structure": "C[C@H]1[C@H](O)[C@@H](C)/C=C/C=C/C=C/C=C/C=C/C=C/C=C/[C@H](O[C@@H]2O[C@H](C)[C@@H](O)[C@H](N)[C@@H]2O)C[C@@H]2O[C@](O)(C[C@@H](O)C[C@@H](O)CC[C@H](O)[C@@H](O)C[C@@H](O)CC(=O)O[C@H]1C)C[C@H](O)[C@H]2C(=O)O", "strain or isolate": "Clinical isolate", "read by": "visual reading", "value": "1 µg/mL"}
{"structure": "NC=Nc1cccc(SCc2ccc(Cl)cc2)c1", "strain or isolate": "SC5314", "value": "50 µM"}
{"structure": "Fc1cccc(/C=N/Nc2ccnc3cc(Cl)ccc23)c1", "value": ">200 µg/mL"}
{"structure": "c1ccc(C(c2ccccc2)n2cnc3ccccc32)cc1", "read by": "broth dilution", "value": ">256 µg/mL"}
{"structure": "CC1(C)CC[C@]2(C(=O)O)CC[C@]3(C)C(=CC[C@@H]4[C@@]5(C)CC[C@H](O[C@@H]6OC[C@H](O)[C@H](O)C6O)[C@@](C)(CO)[C@@H]5CC[C@]43C)[C@@H]2C1", "strain or isolate": "Y0109", "value": ">100 µg/mL"}
{"structure": "CCN(CC)CCSc1c2ccccc2nc2cccc([N+](=O)[O-])c12", "strain or isolate": "CNCM 1180-79", "value": ">500 µg/mL"}
{"structure": "C[C@@H]1CCC2(OC1)OC1CC3C4C[C@H](OC5O[C@@H](CO)[C@H](O)[C@@H](O)[C@@H]5O)[C@H]5C[C@@H](OC6O[C@H](CO)[C@@H](O)[C@H](O)[C@H]6O)CC[C@]5(C)C4CC[C@]3(C)C1[C@@H]2C", "strain or isolate": "ATCC 90028", "value": "20 µg/mL"}
{"structure": "Clc1ccc(C(Cn2ccnc2)OCc2csc3c(Cl)cccc23)c(Cl)c1", "strain or isolate": "15 strains", "value": "16 µg/mL"}
{"structure": "OC(Cn1cncn1)(Cn1cncn1)c1ccc(F)cc1F", "strain or isolate": "1866", "value": ">100 µg/mL"}
{"structure": "C[C@@H]1[C@H](O)[C@@H](C)/C=C/C=C/C=C/C=C/C=C/C=C/C=C/[C@H](O[C@@H]2O[C@H](C)[C@@H](O)[C@H](N)[C@@H]2O)C[C@@H]2O[C@](O)(C[C@@H](O)C[C@@H](O)[C@H](O)CC[C@@H](O)C[C@@H](O)CC(=O)O[C@H]1C)C[C@H](O)[C@H]2C(=O)O", "strain or isolate": "Clinical isolate 44A", "read by": "broth dilution", "value": "8 µg/mL"}
{"structure": "Clc1ccc(CO/N=C2/c3ccccc3OCC2n2cnnc2)c(Cl)c1", "strain or isolate": "ATCC 10231", "value": ">64 µg/mL"}
{"structure": "Clc1ccccc1C(c1ccccc1)(c1ccccc1)n1ccnc1", "strain or isolate": "ATCC 10231", "value": "10 µg/mL"}
{"structure": "Cc1ccccc1CC(Cc1ccc(-c2ccccc2)cc1)n1ccnc1", "value": ">100 µM"}
{"structure": "Clc1ccc(C(CCn2ccnc2)Oc2ccc(Cl)cc2Cl)cc1", "strain or isolate": "20 strains", "value": "3.62 µg/mL"}
{"structure": "CCCCCCCCSc1cc(C(N)=S)ccn1", "strain or isolate": "3a", "value": "100 µg/mL"}
{"structure": "COc1cc(NC(C)CCCN)c2nc(C(C)(C)C)cc(C)c2c1Oc1cccc(C(F)(F)F)c1", "value": ">20 µg/mL"}
{"structure": "Clc1ccc2c(c1)OCC(n1cncn1)/C2=N\\OCc1ccc(Cl)c(Cl)c1", "strain or isolate": "ATCC 10231", "value": "64 µg/mL"}
{"structure": "Clc1ccc(OC(CCn2ccnc2)c2ccccc2)cc1", "strain or isolate": "20 strains", "value": "9.8 µg/mL"}
{"structure": "Fc1ccc(CC(Cc2ccc(-c3ccccc3)cc2)n2ccnc2)cc1", "value": "19 µM"}

7 of the rows above, restated:

structure | strain or isolate | read by | value
C[C@@H]1[C@H](O)[C@@H](C)/C=C/C=C/C=C/C=C/C=C/C=C/C=C/[C@H](O[C@@H]2O[C@H](C)[C@@H](O)[C@H](N)[C@@H]2O)C[C@@H]2O[C@](O)(C[C@@H](O)C[C@@H](O)[C@H](O)CC[C@@H](O)C[C@@H](O)CC(=O)O[C@H]1C)C[C@H](O)[C@H]2C(=O)O | Clinical isolate 44A | broth dilution | 8 µg/mL
Clc1ccc(OC(CCn2ccnc2)c2ccccc2)cc1 | 20 strains |  | 9.8 µg/mL
Clc1ccc(CO/N=C2/c3ccc(Cl)cc3OCC2n2cncn2)cc1 | ATCC 10231 |  | >64 µg/mL
CCSc1ccc([N+](=O)[O-])c2c(SCC)c3ccccc3nc12 | CNCM 1180-79 |  | >500 µg/mL
O=[N+]([O-])c1ccc(OC(CCn2ccnc2)c2ccccc2)cc1 | 20 strains |  | 67.2 µg/mL
CCC(C)CC(C)CCCCCCCCC(=O)NC1C[C@H](O)[C@@H](O)NC(=O)[C@@H]2C[C@@H](O)CN2C(=O)[C@H]([C@H](O)CC(N)=O)NC(=O)[C@H](C(O)[C@H](O)c2ccc(O)cc2)NC(=O)[C@@H]2C[C@@H](O)CN2C(=O)[C@H]([C@@H](C)O)NC1=O | MY1055 |  | 2 µg/mL
Brc1ccc(CO/N=C2\c3ccccc3OCC2n2cncn2)cc1 | ATCC 10231 |  | 64 µg/mL

Lines come from different laboratories, so protocols vary.